A mixed list of measured activities; the numbers were collected in NIAID ChemDB.

All rows: tests in culture; species: HIV-1

ECn: concentration that inhibits the pathogen or its effect by n%. An empty or dashed field is not shown. Neighbouring rows are from separate reports. Two numbers with a dash give a range or band.

structure	endpoint	mutations	strain or isolate	setting	read by	cells	result
Cc1cn(CC=C(CO)CO)c(=O)[nH]c1=O	EC50						>100 µg/mL
Nc1ncnc2c1ncn2[C@H]1C[C@@H](OCP(=O)(O)O)CO1	EC50		IIIB		MTT / absorbance	MT-4	4.69 µM
CCCCCCCCCCCCCCCC(=O)Nc1ccn([C@H]2CC[C@@H](COP(=O)(O)OC[C@H]3O[C@@H](n4cc(C)c(=O)[nH]c4=O)C[C@@H]3N=[N+]=[N-])O2)c(=O)n1	EC50	RT-M41L D67N K70R T215Y	D148/89 (AZT-resistant RT M41L D67N K70R T215Y)		cytopathic effect / XTT	CEM + CEM-SS	0.045 µM
CCCCCCCCO[C@H]1N([C@H]2C[C@H](N=[N+]=[N-])[C@@H](CO)O2)C(=O)NC(=O)[C@]1(C)Cl	EC50		RF		cytopathic effect / XTT	CEM + CEM-SS	>27.5 µM
CC(C)C1=C2[C@H]3CC[C@@H]4[C@@]5(C)CC[C@H](OC(=O)[C@H]6C[C@@H](C(=O)O)C6(C)C)C(C)(C)[C@@H]5CC[C@@]4(C)[C@]3(C)CC[C@@]2(CC(=O)NCC(F)NC(=O)c2ccc(Cl)cc2)CC1=O	EC50		92HT599		p24 / ELISA	MT-2	<1 µM
Cc1nn([C@H]2CO[C@H](CO)O2)c(=O)[nH]c1=O	EC50		IIIB		cytopathic effect / MTT	MT-2	>100 µM
CC(CCC(=O)N[C@@H](Cc1ccc(O)cc1)C(=O)O)C1CCC2C3CCC4C[C@H](O)CCC4(C)C3C[C@H](O)C12C	EC50				p24 / ELISA		21.5 µg/mL
Cc1cn([C@H]2C[C@H](OP(=O)(O)OC[C@@H]3CC[C@H](n4ccc(N)nc4=O)O3)[C@@H](CO)O2)c(=O)[nH]c1=O	EC50		IIIB		cytopathic effect / XTT	CEM + CEM-SS	0.134–0.267 µM
Cc1cn([C@H]2C[C@@H](OCP(=O)(O)O)CO2)c(=O)[nH]c1=O	EC50					MT-4	6.59 µM
Nc1ncn([C@H]2CO[C@@H](CO)O2)c(=O)n1	EC50		IIIB		cytopathic effect / MTT	MT-2	1 µM
N#Cc1cc(Cl)cc(Oc2cc(Cl)cc(OCC(=O)NCC3CCS(=O)(=O)C3)c2)c1	EC50				p24	MT-4	<20 µM
O=C(COc1ccc2ccccc2c1)NCc1n[nH]c(=S)n1Cc1ccccc1	EC50		IIIB		MTT	MT-4	>28.5 µg/mL
CC(C)CN(C[C@@H](O)[C@H](NC(=O)O[C@H]1CCOC1)Sc1ccccc1)S(=O)(=O)c1ccc(N)cc1	EC50				syncytia	MT-4	>50 µM
Nc1nc(NC2CC2)c2ncn([C@H]3C[C@@H](OCP(=O)(O)O)CO3)c2n1	EC50		IIIB		MTT / absorbance	MT-4	>338 µM
CC(C)C1=C2[C@H]3CC[C@@H]4[C@@]5(C)CC[C@H](OC(=O)[C@H]6C[C@@H](C(=O)O)C6(C)C)C(C)(C)[C@@H]5CC[C@@]4(C)[C@]3(C)CC[C@@]2([C@@H](O)CNC(=O)C(C)(CCCN)NC(=O)c2ccc(Cl)cc2)CC1=O	EC50		92HT599		p24 / ELISA	MT-2	<1 µM
C/C(=C\Cn1ccc(=O)[nH]c1=O)CO	EC50						>100 µg/mL
CC(C)(C)c1ccccc1Sc1c(O)cc(-c2ccc(OCc3cccnc3)cc2)oc1=O	EC50		IIIB			CEM	>100 µM
COc1ccc(CN(CC(O)C(Sc2ccccc2)N(Cc2ccc(OC)cc2)C(=O)OCC(C)C)C(=O)OCC(C)C)cc1	EC50		LAV		syncytia	MT-4	10 µM
Cc1ccc(S(=O)(=O)Sc2nnc(CNC(=O)COc3ccc4ccccc4c3)n2-c2ccccc2)cc1	EC50		IIIB		MTT	MT-4	>12.7 µg/mL
C/C(=C\Cn1cc(I)c(=O)[nH]c1=O)CO	EC50						>100 µg/mL
CC1(C)c2nc(C(=O)NCc3ccc(F)cc3)c(O)c(=O)n2CCN1Cc1ccn[nH]1	EC95				p24	MT-4	<1 µM
O=C(O)[C@H]1O[C@@H](Oc2cc(O)c3c(=O)cc(-c4ccc(O)cc4)oc3c2)[C@H](O)[C@@H](O)[C@@H]1O	EC50		IIIB		cytopathic effect	MT-4	>0.32 µg/mL
NS(=O)(=O)c1ccc(NC(=O)COc2cc(Cl)cc(Oc3cncc(Br)c3)c2)c(Cl)c1	EC50				p24	MT-4	<20 µM
Cc1cnc(CN2CCn3c(nc(C(=O)NCc4ccc(F)cc4)c(O)c3=O)C2(C)C)o1	EC95				p24	MT-4	<1 µM
CCCCCCCCCCCCCCCCO[C@H]1N([C@H]2C[C@H](N=[N+]=[N-])[C@@H](CO)O2)C(=O)NC(=O)[C@]1(C)Cl	EC50		RF		cytopathic effect / XTT	CEM + CEM-SS	>31 µM
Cc1cc2ncc(=O)n(CC(O)CO)c2cc1C	EC50				MTT	MT-4	0.15 µg/mL
COc1cnc(-n2cnc(C)n2)c2[nH]cc(C(=O)C(=O)N3CCN(C(=O)c4ccccc4)CC3)c12	EC50	M426P	NL4-3		luciferase	U-87	0.0099 µM
Cc1cc(=O)c2c(O)c3c(O)cc(O)c4c5c(O)cc(O)c6c(O)c7c(=O)cc(C)c8c1c2c(c34)c(c65)c78	EC50			14 d	ELISA	CEM	<1 µg/mL
CC(C)[C@H](NC(=O)OC(C)(C)C)C(=O)NC(Sc1ccccc1)C(O)C(NC(=O)[C@@H](NC(=O)OC(C)(C)C)C(C)C)Sc1ccccc1	EC50		LAV		syncytia	MT-4	>100 µM
CNC(=O)CN1CCn2c(nc(C(=O)NCc3ccc(F)cc3)c(O)c2=O)C1(C)C	EC95				p24	MT-4	<1 µM
O=C(/C=C(\O)c1cccc(O)c1)c1nc2ccccc2[nH]1	EC50		IIIB		cytopathic effect	MT-4	7.1 µM
CCOC(=O)[C@H](C)NP(=O)(OC[C@@H]1O[C@H](n2cc(C)c(=O)[nH]c2=O)C[C@H]1N=[N+]=[N-])OC[C@H]1O[C@@H](n2cc(C)c(=O)[nH]c2=O)C[C@@H]1N=[N+]=[N-]	EC50					CEM + CEM TK-	>10 µM
CC(C)C1=C2[C@H]3CC[C@@H]4[C@@]5(C)CC[C@H](OC(=O)[C@H]6C[C@@H](C(=O)O)C6(C)C)C(C)(C)[C@@H]5CC[C@@]4(C)[C@]3(C)CC[C@@]2(CC(=O)NCc2ccc(Cl)cc2O[C@@H]2CCOC2)CC1=O	EC50		92HT599		p24 / ELISA	MT-2	<1 µM
CCOC(=O)C(C)NP(=O)(OC[C@@H]1O[C@H](n2cc(C)c(=O)[nH]c2=O)C[C@H]1N=[N+]=[N-])OC[C@H]1O[C@@H](n2cc(C)c(=O)[nH]c2=O)C[C@@H]1N=[N+]=[N-]	EC50					CEM + CEM TK-	>10 µM
Nc1ncn([C@H]2CO[C@H](CO)O2)c(=O)n1	EC50		IIIB		cytopathic effect / MTT	MT-2	>100 µM
Cc1ccc(NC(=S)NNC(=O)CNC(=O)COc2ccc3ccccc3c2)cc1	EC50		IIIB		MTT	MT-4	>91.4 µg/mL
CCCOC(=O)[C@H](Cc1ccccc1)NP(=O)(CO[C@H]1CO[C@@H](n2cnc3c(=O)[nH]cnc32)C1)N[C@@H](Cc1ccccc1)C(=O)OCCC	EC50		IIIB		MTT / absorbance	MT-4	>95.1 µM
O=C(O[C@H]1CCOC1)N(Cc1ccccc1)CC(O)C(Sc1ccccc1)N(Cc1ccccc1)C(=O)O[C@H]1CCOC1	EC50		LAV		syncytia	MT-4	10 µM
Cc1ccc(C(=O)NC(C)(C)CNC[C@H](O)[C@@]23CC[C@]4(C)[C@H](CC[C@@H]5[C@@]6(C)CC[C@H](OC(=O)[C@H]7C[C@@H](C(=O)O)C7(C)C)C(C)(C)[C@@H]6CC[C@]54C)C2=C(C(C)C)C(=O)C3)cc1	EC50		92HT599		p24 / ELISA	MT-2	<1 µM
COC(=O)c1cc(OC)cc(O)c1C(=O)c1c(O)cc(C)c(C2=CC(C)(C)Oc3c(CC=C(C)C)cc(O)cc32)c1O	EC50				MTT	HeLa + C8166	>100 µM
CN(CC(CCN1CCC(O)(CCCc2ccccc2)CC1)c1ccccc1)S(=O)(=O)c1ccc(-c2ccccn2)s1	EC50		YU2		p24	PBMC	<6.2 µM
N#Cc1cc(Cl)cc(Oc2cc(OCC(=O)Nc3ccc(S(N)(=O)=O)cc3Cl)ccc2Cl)c1	EC95				p24	MT-4	<20 µM
Cc1cc(CNC(=O)c2nc3n(c(=O)c2O)CCN(C)CC3N(C)C(=O)C(=O)N(C)C)ccc1F	EC50				p24	MT-4	<1 µM
O=C1CN=C(COc2ccc3ccccc3c2)NN1	EC50		IIIB		MTT	MT-4	>5.2 µg/mL
Nc1ncn([C@@H]2CO[C@H](CO)O2)c(=O)n1	EC50		IIIB		cytopathic effect / MTT	MT-2	5 µM
Nc1ccn(CC=C(CO)CO)c(=O)n1	EC50						65.2 µg/mL
FC(F)(F)[C@@]1(C#CC2CC2)OC(=S)Nc2ccc(Cl)cc21	EC50		IIIB		MTT	MT-4	0.003 µg/mL
CN(CC(CCN1CCC(CCCc2ccccc2)CC1)c1ccccc1)S(=O)(=O)c1ccc(-c2ccccn2)s1	EC50		YU2		p24	PBMC	<3.1 µM
CCCCCCCCCCCCCCCCO[C@H]1N([C@H]2C[C@H](N=[N+]=[N-])[C@@H](CO)O2)C(=O)NC(=O)[C@]1(C)Br	EC50		RF		cytopathic effect / XTT	CEM + CEM-SS	>11 µM
Cc1c(O)cccc1C(=O)N[C@@H](Cc1cccc(F)c1)[C@H](O)C(=O)N1CC(F)(F)C(C)(C)[C@H]1C(=O)NCC(F)(F)F	EC50						0.01 µM
O=C(COc1ccc2ccccc2c1)NCC(=O)NNC(=S)NCc1ccccc1	EC50		IIIB		MTT	MT-4	>67 µg/mL
N#Cc1cc(Cl)cc(Oc2cc(OCc3nc4cccc(Cl)c4o3)ccc2Cl)c1	EC95				p24	MT-4	<20 µM
O=c1oc(-c2ccc(OCc3ccccn3)cc2)cc(O)c1SCCc1ccccc1	EC50		IIIB			H9	2.3 µM
CC(=O)Sc1ccccc1C(=O)NCCC(N)=O	EC50		RF		XTT	CEM	3.2 µM
Cc1ccccc1CNC(=O)C1N(C(=O)[C@@H](O)[C@H](Cc2cccc(F)c2)NC(=O)c2cccc(O)c2C)CC(F)(F)C1(C)C	EC50						0.016 µM
CCO[C@H]1N([C@H]2C[C@H](N=[N+]=[N-])[C@@H](CO)O2)C(=O)NC(=O)[C@@]1(C)Cl	EC50		RF		cytopathic effect / XTT	CEM + CEM-SS	>200 µM
N#Cc1cc(Cl)cc(Oc2cc(OCc3[nH]nc4nc(N)ccc34)cc(F)c2Cl)c1	EC50				p24	MT-4	<20 µM
Nc1ncnc2c1ccn2/C=C/[C@H](CO)OCP(=O)(O)O	EC50		IIIB		MTT / absorbance	MT-4	>398 µM
N#Cc1cc(Cl)cc(Oc2cc(F)c(Cl)c(OCc3nnc4n(O)cccc3-4)c2)c1	EC95				p24	MT-4	<20 µM
CC(C)C1=C2[C@H]3CC[C@@H]4[C@@]5(C)CC[C@H](OC(=O)[C@H]6C[C@@H](C(=O)O)C6(C)C)C(C)(C)[C@@H]5CC[C@@]4(C)[C@]3(C)CC[C@@]2([C@@H](O)CNCC2(N)COC2)CC1=O	EC50		92HT599		p24 / ELISA	MT-2	<1 µM
N#Cc1cc(Cl)cc(Oc2cc(OCc3[nH]nc4nc(N5CCOCC5)ccc34)ccc2Cl)c1	EC50				p24	MT-4	<20 µM
CN(C)CC1c2nc(C(=O)NCc3ccc(F)cc3)c(O)c(=O)n2CCN1C	EC50				p24	MT-4	1–10 µM
CC(C)[C@H](NC(=O)c1ccc2ccccc2n1)C(=O)N(Cc1ccccc1)CC(O)C(Sc1ccccc1)N(Cc1ccccc1)C(=O)[C@@H](NC(=O)c1ccc2ccccc2n1)C(C)C	EC50		LAV		syncytia	MT-4	10 µM
C=C(C)C12OCOC1C1C3OC3(CO)C(O)C3(O)C(=O)C(C)=CC3C1(O/C=C/C=C/CCC)C(C)C2OC(=O)c1ccccc1	EC50				fluorescence	PBMC	0.03 µM
NS(=O)(=O)c1ccc(NC(=O)COc2cccc(Oc3ccccc3)c2)c(Cl)c1	EC50				p24	MT-4	<20 µM
CC(C)C1=C2[C@H]3CC[C@@H]4[C@@]5(C)CC[C@H](OC(=O)[C@H]6C[C@@H](C(=O)O)C6(C)C)C(C)(C)[C@@H]5CC[C@@]4(C)[C@]3(C)CC[C@@]2(CCNC(C)(C)c2ncc(Cl)cn2)CC1=O	EC50		92HT599		p24 / ELISA	MT-2	<1 µM
CCOP(=O)(CO[C@]1(C2CC2)C=C[C@H](n2cnc3c(N)ncnc32)C1)OCC	EC50				XTT / absorbance	T4	62.5 µM

A second listing of 7 rows from above:

structure,endpoint,mutations,strain or isolate,setting,read by,cells,result
CCO[C@H]1N([C@H]2C[C@H](N=[N+]=[N-])[C@@H](CO)O2)C(=O)NC(=O)[C@@]1(C)Cl,EC50,,RF,,cytopathic effect / XTT,CEM + CEM-SS,>200 µM
Nc1ncnc2c1ccn2/C=C/[C@H](CO)OCP(=O)(O)O,EC50,,IIIB,,MTT / absorbance,MT-4,>398 µM
CCCCCCCCCCCCCCCCO[C@H]1N([C@H]2C[C@H](N=[N+]=[N-])[C@@H](CO)O2)C(=O)NC(=O)[C@]1(C)Br,EC50,,RF,,cytopathic effect / XTT,CEM + CEM-SS,>11 µM
O=C(/C=C(\O)c1cccc(O)c1)c1nc2ccccc2[nH]1,EC50,,IIIB,,cytopathic effect,MT-4,7.1 µM
Nc1ncn([C@H]2CO[C@@H](CO)O2)c(=O)n1,EC50,,IIIB,,cytopathic effect / MTT,MT-2,1 µM
CC(C)C1=C2[C@H]3CC[C@@H]4[C@@]5(C)CC[C@H](OC(=O)[C@H]6C[C@@H](C(=O)O)C6(C)C)C(C)(C)[C@@H]5CC[C@@]4(C)[C@]3(C)CC[C@@]2(CC(=O)NCc2ccc(Cl)cc2O[C@@H]2CCOC2)CC1=O,EC50,,92HT599,,p24 / ELISA,MT-2,<1 µM
CCCCCCCCCCCCCCCCO[C@H]1N([C@H]2C[C@H](N=[N+]=[N-])[C@@H](CO)O2)C(=O)NC(=O)[C@]1(C)Cl,EC50,,RF,,cytopathic effect / XTT,CEM + CEM-SS,>31 µM